Anti-infective test results gathered from many reports (values: NIAID ChemDB through PubChem).

All rows: growth or infection tests; organism: HIV-1

Conditions beyond the fields shown may differ between rows. An empty or dashed field is not shown. Two numbers with a dash give a range or band. ECn: concentration that inhibits the pathogen or its effect by n%.

SMILES,strain,read-out,method,mutations,cell line,result
CCc1c(Sc2ccccn2)n(COCc2ccccc2)c(=O)[nH]c1=O,IIIB,EC50,cytopathic effect / XTT,,U-937,0.02 µM
CCCc1cc(=O)oc2c3c(c4c(c12)OC(C)(C)C=C4)O[C@@H](C)[C@H](C)[C@@H]3O,TEKI(SI),EC50,RT activity,,PBMC,0.2 µM
Cc1cn([C@H]2C[C@H](N=[N+]=[N-])[C@@H](CO)O2)c(=O)[nH]c1=O,XM-AZT-resistant,EC90,p24,RT-M41L D67N K70R T215Y K219Q,PBMC,6.7 µM
O=c1[nH]cnc2c1ncn2[C@H]1CC[C@@H](CO)O1,IIIB,EC50,syncytia,RT-L100I,CEM,4.83 ± 2.02 µM
O=c1[nH]cnc2c1ncn2[C@H]1CC[C@@H](CO)O1,HIVRTMF (RT L74V),EC50,plaque count,RT-L74V T215Y,HT4 + HT4 LacZ-1,10 µM
Cc1ccnc2c1NC(=O)c1cccnc1N2C1CC1,Diphenyl sulfone-resistant (RT-Y181C),EC50,XTT,RT-Y181C,CEM + CEM-SS,5.9 µM
Cc1ccnc2c1NC(=O)c1cccnc1N2C1CC1,4xAZT,EC50,cytopathic effect / XTT,,CEM + CEM-SS,0.02 µM
O=c1[nH]cnc2c1ncn2[C@H]1CC[C@@H](CO)O1,8420 CLADE D CLADE D,EC50,p24,,PBMC,7.23 µM
O=C(N[C@H]1c2ccccc2OC[C@H]1O)[C@H](Cc1cccnc1)C[C@H](O)CN1CCN(Cc2ccn(-c3cccc(C(F)(F)F)c3)c2)C[C@H]1C(=O)NCC(F)(F)F,K-60C Clinical isolate,EC95,p24,PR-L10I M46I I54V Q58E L63P I64V V77I V82F I84V L90M I93L,MT-4,0.031 µM
Cc1cn([C@H]2C[C@H](N=[N+]=[N-])[C@@H](CO)O2)c(=O)[nH]c1=O,3TC-resistant (RT M184V),EC50,XTT,RT-M184V,CEM + CEM-SS,0.02 µM
O=c1c2ccccc2n2nnc3ccc(NCCCN4CCN(CCCNc5ccc6nnn7c8ccccc8c(=O)c5c67)CC4)c1c32,CLADE F,EC50,p24,,PBL,0.0074 µM
CCOCn1c(Cc2ccccc2)c(C(C)C)c(=O)[nH]c1=O,BaL,EC50,p24,,MM + M/M,0.02 µg/mL
CC(C)(C)NC(=O)[C@@H]1CN(Cc2cccnc2)CCN1C[C@@H](O)C[C@@H](Cc1ccccc1)C(=O)N[C@H]1c2ccccc2C[C@H]1O,7295-1 NRTI resistant recombinant,EC50,p24,RT-D67N T69N K70R M184V T215F K219Q,PBMC,0.0172 µM
CC(C)Nc1cccnc1N1CCN(C(=O)c2cc3cc(NS(C)(=O)=O)ccc3[nH]2)CC1,HE,EC50,cytopathic effect,,MOLT-4,0.05 µg/mL
Nc1ccn([C@@H]2CS[C@H](CO)O2)c(=O)n1,1617-1 NRTI resistant recombinant,EC50,RT activity,RT-T69K K70G V75I F77L F116Y Q151M M184V,PBMC,>10 µM
C/C=C/CSc1cc(NC(=S)c2ccsc2C)ccc1Cl,NL4-3 (RT L100I),EC50,cytopathic effect / XTT,RT-L100I,CEM + CEM-SS,>2 µM
Nc1ccn([C@H]2CC[C@@H](CO)O2)c(=O)n1,HXB2D,EC50,p24,,MT-4,0.45 µM
O=C(N[C@H]1c2ccccc2OC[C@H]1O)[C@H](Cc1cccnc1)C[C@H](O)CN1CCN(Cc2ccn(-c3ccc(Cl)cc3)c2)C[C@H]1C(=O)NCC(F)(F)F,K-60C Clinical isolate,EC50,p24,PR-L10I M46I I54V Q58E L63P I64V V77I V82F I84V L90M I93L,MT-4,<0.015 µM
COc1ccc(S(=O)(=O)N(CC(C)C)C[C@@H](O)[C@H](Cc2ccccc2)NC(=O)O[C@H]2CO[C@H]3OCC(F)(F)[C@H]32)cc1,ERS104pre,EC50,,L63P,PBMC,0.0023 µM
O=C1CN=C(c2ccc[nH]2)c2cc(Cl)ccc2N1,IIIB/LAI,EC50,p24,,MT-4,>9 µM
CCCc1cc(=O)oc2c3c(c4c(c12)OC(C)(C)C=C4)O[C@H](C)[C@@H](C)[C@@H]3O,SLKA(SI),EC50,RT activity,,PBMC,0.3 µM
CC(C)=CCOc1cc(NC(=S)c2ccoc2C)ccc1Cl,IIIB,EC50,syncytia,,CEM,0.0018 ± 0.0004 µM
Cc1cn([C@H]2C[C@H](N=[N+]=[N-])[C@@H](CO)O2)c(=O)[nH]c1=O,IIIB,EC50,cytopathic effect / XTT,,AA5,0.01 µM
O=S(=O)(c1ccccc1)c1ccccc1,UC10-resistant (RT Y181C K101E),EC50,cytopathic effect / XTT,RT-Y181C K101E,CEM + CEM-SS,>114 µM
O=c1[nH]cnc2c1ncn2[C@H]1CC[C@@H](CO)O1,NL-XM WT,EC90,p24,,MT-4,6.9 µM
COC(=O)N[C@H](C(=O)N[C@@H](Cc1ccccc1)[C@@H](O)CN(Cc1ccc(-c2ccccn2)cc1)NC(=O)[C@@H](NC(=O)OC)C(C)(C)C)C(C)(C)C,NL4-3,EC50,,L10I G48V I54V A71V I84V L90M SQV resistant,MT-4,>1 µM
CC(C)=CCN1Cc2cccc3[nH]c(=S)n(c23)C[C@@H]1C,Dihydrocostatolide-resistant (RT-L100I),EC50,XTT,RT-L100I,CEM + CEM-SS,11.7 µM
O=C(N[C@H]1c2ccccc2OC[C@H]1O)[C@H](Cc1cccnc1)C[C@H](O)CN1CCN(Cc2ccn(-c3ccc(F)c(F)c3F)c2)C[C@H]1C(=O)NCC(F)(F)F,K-60C Clinical isolate,EC95,p24,PR-L10I M46I I54V Q58E L63P I64V V77I V82F I84V L90M I93L,MT-4,0.015 µM
COC(=O)[C@H](C)NP(=O)(OC[C@@H]1C=C[C@H](n2cc(C)c(=O)[nH]c2=O)O1)Oc1ccc(Br)cc1,S159-2 NRTI resistant,EC50,p24,RT-M41L K103N T215Y,PBMC,0.0008 µM
C1=Nc2ccccc2SN1,IIIB HEPT-resistant (RT P236L),EC50,cytopathic effect / XTT,RT-P236L,CEM + CEM-SS,5 µM
O=C(Nc1cc(S(=O)(=O)O)cc2cc(S(=O)(=O)O)c(N=Nc3ccc(N=Nc4c(S(=O)(=O)O)cc5cc(S(=O)(=O)O)cc(NC(=O)c6cccc(Cl)c6Cl)c5c4O)cc3)c(O)c12)c1ccc(Cl)cc1Cl,IIIB,EC50,,,H9,0.3–1.3 µg/mL
Cc1cn([C@H]2C=C[C@@H](CO)O2)c(=O)[nH]c1=O,Clinical isolate,EC50,recombinant virus assay,K65R M184V,MT-2,0.576 µM
Cc1ccnc2c1NC(=O)c1cccnc1N2C1CC1,BaL,EC50,cytopathic effect / XTT,,MAC,0.4 µM
S=C(NCCc1cccs1)Nc1ccc(Br)cn1,N833-1 Clinical isolate NRTI-resistant,EC50,plaque count,RT-K20R T215Y,HT4 + HeLa,0.05 µM
C[C@@H](Cn1cnc2c(N)ncnc21)OCP(=O)(O)O,IIIB,EC50,cytopathic effect / trypan blue,,MT-4,270 µM
Nc1nc(=O)n([C@@H]2CS[C@H](CO)O2)cc1F,Clinical isolate,EC50,recombinant virus assay,A62V/V75I/F77L/F116L/Q151M/M184V,MT-2,>13.3 µM
O=C(N[C@H]1c2ccccc2OCC1O)[C@H](Cc1cccnc1)C[C@H](O)CN1CCN(Cc2ccc(-c3ccccc3)o2)C[C@H]1C(=O)NCC(F)(F)F,V-18C Clinical isolate,EC95,p24,PR-L10I M36I N37D M46I R57K L63P A71V G73S I84V L90M I93L,MT-4,≤0.008 µM
CC(C)CN(C[C@@H](O)[C@H](Cc1ccccc1)NC(=O)O[C@H]1CCOC1)S(=O)(=O)c1ccc(N)cc1,NL4-3,EC90,p24,PR-D30N,MT-4,0.02 µM
Cc1occc1C(=S)Nc1ccc(Cl)c(/C=N/OC(C)(C)C)c1,4XAZT+Y181C,EC50,cytopathic effect / XTT,,CEM + CEM-SS,0.2 µM
CC(C)CN(C[C@@H](O)[C@H](Cc1ccccc1)NC(=O)O[C@H]1CO[C@H]2OCC(F)(F)[C@H]21)S(=O)(=O)c1ccc(N)cc1,NL4-3,EC50,,M46I I50V N38K M36I GRL05010-resistant,MT-4,0.036 µM
C#C[C@]1(CO)O[C@@H](n2cnc3c(N)nc(F)nc32)C[C@@H]1O,Clinical isolate,EC50,fluorescence,M41L/M184V,MT4-GFP,0.00598 µM
C[C@H](Cn1cnc2c(N)nc(N)nc21)OCP(=O)(O)O,IIIB,EC50,cytopathic effect / trypan blue,,MT-4,0.59 µM

A second listing of 4 rows from above:

SMILES,strain,read-out,method,mutations,cell line,result
CC(C)(C)NC(=O)[C@@H]1CN(Cc2cccnc2)CCN1C[C@@H](O)C[C@@H](Cc1ccccc1)C(=O)N[C@H]1c2ccccc2C[C@H]1O,7295-1 NRTI resistant recombinant,EC50,p24,RT-D67N T69N K70R M184V T215F K219Q,PBMC,0.0172 µM
Cc1cn([C@H]2C=C[C@@H](CO)O2)c(=O)[nH]c1=O,Clinical isolate,EC50,recombinant virus assay,K65R M184V,MT-2,0.576 µM
O=S(=O)(c1ccccc1)c1ccccc1,UC10-resistant (RT Y181C K101E),EC50,cytopathic effect / XTT,RT-Y181C K101E,CEM + CEM-SS,>114 µM
CC(C)=CCOc1cc(NC(=S)c2ccoc2C)ccc1Cl,IIIB,EC50,syncytia,,CEM,0.0018 ± 0.0004 µM